# Results as given in PubChem BioAssay AID1721 (National Center for Advancing Translational Sciences (NCATS), 2009).
# Sequences of proteins named here, by UniProt entry; tags and fusion partners are left off.
# UniProt Q27686, whole entry: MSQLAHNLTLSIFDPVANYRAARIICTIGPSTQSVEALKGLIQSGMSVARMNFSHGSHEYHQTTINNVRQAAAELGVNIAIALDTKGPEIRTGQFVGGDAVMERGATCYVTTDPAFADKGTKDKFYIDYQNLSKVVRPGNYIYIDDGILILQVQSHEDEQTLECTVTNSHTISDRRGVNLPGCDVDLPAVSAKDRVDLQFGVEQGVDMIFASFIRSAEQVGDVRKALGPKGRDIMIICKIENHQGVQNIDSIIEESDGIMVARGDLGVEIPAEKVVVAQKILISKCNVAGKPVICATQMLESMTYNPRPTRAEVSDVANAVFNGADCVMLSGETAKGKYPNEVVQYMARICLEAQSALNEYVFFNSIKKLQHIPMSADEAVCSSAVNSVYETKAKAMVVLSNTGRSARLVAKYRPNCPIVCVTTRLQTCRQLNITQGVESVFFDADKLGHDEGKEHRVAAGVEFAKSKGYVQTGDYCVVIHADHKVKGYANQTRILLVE
# The list shows a part of the results, in another mix than the full data. Activity calls are given as the source filed them. Calls follow the shape of the dose curve; as a rule, active = well fitted inhibition curve with a large enough effect; inconclusive = small, poorly fitted or top-dose-only effect, or another doubt; inactive = no such curve, though single readings can be large or run the other way.
# Target: Pyruvate kinase (Leishmania mexicana) (UniProt Q27686)
# Assay: qHTS Assay for Inhibitors of Leishmania Mexicana Pyruvate Kinase (LmPK)
# Details: purified LmPK, Kinase-Glo ATP luminescence, 1 h; at 57.5 µM (top of the series)
# Description: NIH Chemical Genomics Center [NCGC] Malcolm Walkinshaw, Hugh Morgan, Linda Gilmore University of Edinburgh, UK MLPCN Grant: 1 R03 MH085697-01 NCGC Assay Overview: Pyruvate kinase (L. Mexicana) (LmPK) enzyme was supplied as a highly purified (>95% pure) sulphate-free preparation from University of Edinburgh, UK and assayed for its ability to generate ATP from ADP using phosphoenolpyruvate (PEP) as a substrate. ATP generation was detected in a coupled reaction by luciferase-mediated luminescence, an ATP-dependent process. […] The enzyme was assayed at an intermediate level of activity to screen for both inhibitors and activators.
# NCGC Assay Protocol Summary: Three uL of enzyme mix (kept on ice) in assay buffer (50 mM Imidazole pH7.2, 50 mM KCl, 7 mM MgCl2, 0.01% Tween 20, 0.05% BSA) containing PEP (0.5 mM final concentration) and LmPK (0.1 nM final concentration) was dispensed into white solid bottom 1,536 well microtiter plates. 23 nL of compound were delivered by a pin tool and 1 uL of ADP mix in assay buffer (r.t; 0.1 mM final ADP concentration) was added. Plates were incubated at room temperature for 1 hour. Two uL of detection mix (Kinase-Glo, Promega; at 4 degree Celsius protected from light) was added and luminescence read by a ViewLux (Perkin Elmer) at 1 second exposure/plate. Data were normalized to the uninhibited and AC100 inhibition (no enzyme). To monitor activation, the first column contained a five-fold concentration of LmPK (0.5 nM).
# % is scaled to controls: 0 for no effect and ±100 for the full control effect.
row,SMILES,"activity change, negative = inhibition"
1,CCN(CC)CCCOC(=O)C(O)(c1ccccc1)c1ccccc1,inactive: 3.72%
2,CN1CCCCC1COC(=O)C1(O)c2ccccc2CCc2ccccc21 (centres undefined),inactive: -0.0792%
3,CCN(CC)CCCOC(=O)C(O)(c1ccccc1)C1CCCCC1 (centres undefined),inactive: 3.58%
4,O=C(OCCN1CCN(CCOCc2ccccc2)CC1)C(O)(c1ccccc1)c1ccccc1,inactive: 2.89%
5,CN(C)CCOC(=O)C(O)(c1ccccc1)C1CCCCC1 (centres undefined),inactive: 3.85%
6,O=[N+]([O-])c1ccc(OP2(=O)COCCO2)cc1 (centres undefined),inactive: -2.35%
7,CCN(CC)CC(O)COC(=O)C(O)(c1ccccc1)C1CCCCC1 (centres undefined),inactive: 0.466%
8,O=C(OCCCN1CCCC1)C(O)(c1ccccc1)C1CCCCC1 (centres undefined),inactive: 1.45%
9,CN(C)CCOC(=O)C(O)(c1ccccc1)C1CCCC1 (centres undefined),inactive: 0.515%
